Anti-infective test results gathered from many reports (values: NIAID ChemDB through PubChem).

All rows: whole-cell or culture tests; organism: Parainfluenza virus

a–b is a range or a potency band. Neighbouring rows are from separate reports. An empty or dashed field is not shown. ECn is the concentration giving n% inhibition of infection, replication or growth.

compound	endpoint	cells	strain	read by	result
Cc1cn([C@@H]2C[C@H](CO)[C@@H](O)C2)c(=O)[nH]c1=O	EC50	VERO	TYPE 3	cytopathic effect	>100 µg/mL
Nc1nccc2c1ncn2[C@@H]1C[C@H](CO)[C@@H](O)[C@H]1O	EC50	VERO	TYPE 3	cytopathic effect	2 µg/mL
C/C=C1/[C@H](O[C@@H]2O[C@H](CO)[C@@H](O)[C@H](O)[C@H]2O)OC=C(C(=O)OC)[C@H]1CC(=O)OCCc1ccc(O)c(O)c1	EC50	HEP-2	TYPE 3	cytopathic effect	11.7 µM
CC(=O)Oc1ccc([C@@H]2CC(=O)c3c(cc(OC(C)=O)c(-c4c(OC(C)=O)cc5c(c4OC(C)=O)C(=O)C[C@@H](c4ccc(OC(C)=O)cc4)O5)c3OC(C)=O)O2)cc1	EC50	MA-104	C243 (TYPE 3)	neutral red	>32 µg/mL
Cc1cn([C@H]2C[C@@H](CO)[C@H](O)C2)c(=O)[nH]c1=O	EC50	VERO	TYPE 3	cytopathic effect	>400 µg/mL
CCCC#Cc1c(C(N)=O)ncn1[C@@H]1O[C@H](CO)[C@@H](O)[C@H]1O	EC50	VERO	TYPE 3	cytopathic effect	>200 µg/mL
Nc1nc2c(ncn2[C@@H]2O[C@@H](CO)[C@H](O)[C@H]2O)c(=O)[nH]1	EC50	VERO B	TYPE 3	cytopathic effect	>1000 µM
NC(=O)c1ccnc([C@@H]2O[C@H](CO)[C@@H](O)[C@H]2O)c1	EC50	VERO	TYPE 3	cytopathic effect	>400 µg/mL
C[C@@H](O)C1=C[C@@H](n2cnc3c(N)ncnc32)[C@H](O)[C@@H]1O	EC50	VERO	TYPE 2/CA GREER	plaque count	0.47 µg/mL
Nc1cc(OCCOCP(=O)(O)O)nc(N)n1	EC50	-	TYPE 3	cytopathic effect	>190 µM
Cc1cn([C@@H]2CC[C@H](CO)C2)c(=O)[nH]c1=O	EC50	VERO	TYPE 3	cytopathic effect	>400 µg/mL
Nc1ncnc2c1ccn2[C@@H]1O[C@H](CO)[C@H](O)[C@H]1O	EC50	VERO	TYPE 3	cytopathic effect	≥40 µg/mL
NC(=O)c1ncn([C@@H]2O[C@H](CO)[C@@H](O)[C@H]2O)n1	EC50	VERO	TYPE 3	cytopathic effect	40 µg/mL
O=c1[nH]cnc2c1ncn2[C@@H]1C=C(CO)[C@@H](O)[C@H]1O	EC50	VERO	TYPE 3	cytopathic effect	2 µg/mL
C[C@H]1C[C@@H](n2cnc3c(N)ncnc32)[C@H](O)[C@@H]1O	EC50	VERO	VR-93 (TYPE 3)	cytopathic effect	20 µg/mL
Nc1ncnc2c1ncn2C[C@H](O)CO	EC50	VERO	TYPE 3	cytopathic effect	20 µg/mL
N=C(N)CCNC(=O)C1CCC(N)=N1	MIC	-	TYPE 3	-	6 µg/mL
O=c1ccn([C@@H]2O[C@@H](CO)[C@H](O)[C@H]2O)c(=O)[nH]1	EC50	VERO B	TYPE 3	cytopathic effect	>1000 µM
Nc1nccc2c1ncn2[C@@H]1C[C@H](CO)[C@@H](O)[C@H]1O	EC50	HEP-2	TYPE 3	cytopathic effect	14 µg/mL
NC12CC3CC(CC(C3)C1)C2	EC50	HeLa	ATCC VR-93 (TYPE 3)	plaque count	100 µg/mL
Nc1nccc2c1ncn2[C@@H]1C[C@H](CO)[C@@H](O)[C@H]1O	EC50	VERO	TYPE 3	cytopathic effect	0.2 µg/mL
C#Cc1c(C(N)=O)ncn1[C@@H]1O[C@H](CO)[C@@H](O)[C@H]1O	EC50	VERO	TYPE 3	cytopathic effect	2 µg/mL
Nc1ncnc2c1c(Br)cn2[C@@H]1O[C@H](CO)[C@@H](O)[C@H]1O	EC50	VERO	TYPE 3	cytopathic effect	0.02 µg/mL
C/C=C1\[C@H](OC2O[C@H](CO)[C@@H](O)[C@H](O)[C@H]2O)OC=C(C(=O)O)[C@H]1CC(=O)OCCc1ccc(O)cc1	EC50	HEP-2	TYPE 3	cytopathic effect	15.6 µM
NC(=O)c1ncn([C@@H]2O[C@H](CO)[C@@H](O)[C@H]2O)c1C#Cc1ccccc1	EC50	VERO	TYPE 3	cytopathic effect	>400 µg/mL
Nc1ncnc2c1ncn2[C@H]1[C@H](O)[C@H](O)[C@]2(CO)O[C@H]12	EC50	VERO	TYPE 3	cytopathic effect	0.2 µg/mL
NC(=O)c1ncn([C@@H]2O[C@H](CO)[C@@H](O)[C@H]2O)n1	EC50	HEP-2	TYPE 3	cytopathic effect	12.5 µg/mL
Nc1nc2c(ncn2COCOCP(=O)(O)O)c(=O)[nH]1	EC90	-	C243 (TYPE 3)	virus yield	>100 µg/mL
Nc1ccn([C@@H]2C[C@@H](O)[C@H](CO)O2)c(=O)n1	EC50	MA-104	TYPE 3	-	>100 µM
OC[C@H]1O[C@H](n2cnc3cc(Cl)c(Cl)cc32)[C@@H](O)[C@H]1O	EC50	HeLa	TYPE 3	cytopathic effect	>200 µg/mL
Nc1ncnc2c1ncn2C[C@H](O)CO	EC50	VERO	TYPE 3	cytopathic effect	70 µg/mL
Cc1cn([C@H]2C[C@@H](O)[C@H](CO)O2)c(=O)[nH]c1=O	EC50	VERO B	TYPE 3	cytopathic effect	>1000 µM
Nc1nccc2c1ncn2[C@@H]1C=C[C@@H](O)[C@H]1O	EC50	VERO	TYPE 3	cytopathic effect	2 µg/mL
Nc1ncnc2c1ncn2CCOCP(=O)(O)O	EC50	-	TYPE 3	cytopathic effect	>185 µM
Nc1ccn([C@@H]2C[C@@H](O)[C@H](CO)O2)c(=O)n1	EC50	MA-104	TYPE 3	-	>100 µM
O=[N+]([O-])c1cc(Cl)c(Cl)cc1[N+](=O)[O-]	EC50	HeLa	TYPE 3	cytopathic effect	>4 µg/mL
Nc1cc(OC[C@H](CO)OCP(=O)(O)O)nc(N)n1	EC50	-	TYPE 3	cytopathic effect	>15 µM
CCN1C[C@]2(COC)CC[C@H](O)[C@]34C1[C@@](O)([C@@H](OC)[C@H]23)[C@@]1(O)C[C@H](OC)C2C[C@@H]4[C@@H]1[C@H]2OC(C)=O	EC50	VERO	TYPE 3	cytopathic effect	1–32 µg/mL
COc1cc(NC(=O)Nc2cccc(CNC(=O)O[C@H]3CCOC3)c2)ccc1-c1cnco1	EC50	VERO	TYPE 3	plaque count	13.8 µM
Nc1nc(N)c2nnn(C[C@H]3CC[C@@H](CO)C3)c2n1	EC50	VERO	TYPE 3	cytopathic effect	>100 µg/mL
O[C@@H]1[C@@H](OCc2ccccc2)[C@@H](COCc2ccccc2)O[C@H]1n1cnc2cc(Cl)c(Cl)cc21	EC50	HeLa	TYPE 3	cytopathic effect	>10 µg/mL
NC(=O)c1ncn([C@@H]2O[C@H](CO)[C@@H](O)[C@H]2O)n1	EC50	VERO	TYPE 3	cytopathic effect	48 µg/mL
COc1ccc(-c2cc(=O)c3c(OC)cc(OC)c([C@H]4C(=O)c5c(OC)cc(OC)cc5O[C@@H]4c4ccc(OC)cc4)c3o2)cc1	EC50	MA-104	C243 (TYPE 3)	cytopathic effect	>32 µg/mL
Nc1nc2c(ncn2[C@H]2C[C@@H](O)[C@H](CO)O2)c(=O)[nH]1	EC50	VERO B	TYPE 3	cytopathic effect	>1000 µM
Nc1ncnc2c1ncn2C[C@H](O)CO	EC50	VERO	TYPE 3	cytopathic effect	7 µg/mL
Nc1nccc2c1ncn2[C@@H]1C[C@H](CO)[C@@H](O)[C@H]1O	EC50	VERO	TYPE 3	cytopathic effect	1 µg/mL
Nc1ncnc2c1ncn2[C@@H]1C=C(CO)[C@@H](O)[C@H]1O	EC50	VERO	TYPE 3	cytopathic effect	0.07 µg/mL
C/C=C1\[C@H](OC2O[C@H](CO)[C@@H](O)[C@H](O)[C@H]2O)OC=C(C(=O)OC)[C@H]1CC(=O)OCC1O[C@H](OCCc2ccc(O)c(O)c2)[C@@H](O)[C@H](O)[C@H]1O	EC50	HEP-2	TYPE 3	cytopathic effect	72.9 µM

For reference, 4 entries again:

compound,endpoint,cells,strain,read by,result
C#Cc1c(C(N)=O)ncn1[C@@H]1O[C@H](CO)[C@@H](O)[C@H]1O,EC50,VERO,TYPE 3,cytopathic effect,2 µg/mL
NC(=O)c1ccnc([C@@H]2O[C@H](CO)[C@@H](O)[C@H]2O)c1,EC50,VERO,TYPE 3,cytopathic effect,>400 µg/mL
Cc1cn([C@H]2C[C@@H](O)[C@H](CO)O2)c(=O)[nH]c1=O,EC50,VERO B,TYPE 3,cytopathic effect,>1000 µM
NC(=O)c1ncn([C@@H]2O[C@H](CO)[C@@H](O)[C@H]2O)n1,EC50,HEP-2,TYPE 3,cytopathic effect,12.5 µg/mL